A mixed list of measured activities; the numbers were collected in NIAID ChemDB.

Shared fields: growth or infection tests; species: Aspergillus fumigatus; read-out: MIC50

Blank or dashed fields: not listed here.

SMILES | strain | read by | conditions | result
C[C@@H](c1ncncc1F)[C@](O)(Cn1cncn1)c1ccc(F)cc1F | 314 isolates |  |  | 0.5 µg/mL
CCCCCOc1ccc(-c2cc(-c3ccc(C(=O)N[C@H]4C[C@@H](O)[C@@H](O)NC(=O)[C@@H]5[C@@H](O)[C@@H](C)CN5C(=O)[C@H]([C@H](O)CC(N)=O)NC(=O)[C@H]([C@H](O)[C@@H](O)c5ccc(O)c(OS(=O)(=O)O)c5)NC(=O)[C@@H]5C[C@@H](O)CN5C(=O)[C@H]([C@@H](C)O)NC4=O)cc3)no2)cc1 | 25 isolates |  |  | 0.03 µg/mL
CC[C@@H]([C@H](C)O)n1ncn(-c2ccc(N3CCN(c4ccc(OC[C@@H]5CO[C@@](Cn6cncn6)(c6ccc(F)cc6F)C5)cc4)CC3)cc2)c1=O | 256 isolates |  |  | 0.25 µg/mL
CCCCCOc1ccc(-c2cc(-c3ccc(C(=O)N[C@H]4C[C@@H](O)[C@@H](O)NC(=O)[C@@H]5[C@@H](O)[C@@H](C)CN5C(=O)[C@H]([C@H](O)CC(N)=O)NC(=O)[C@H]([C@H](O)[C@@H](O)c5ccc(O)c(OS(=O)(=O)O)c5)NC(=O)[C@@H]5C[C@@H](O)CN5C(=O)[C@H]([C@@H](C)O)NC4=O)cc3)no2)cc1 |  | broth dilution |  | 0.03 µg/mL
C[C@H]1[C@H](O)[C@@H](C)/C=C/C=C/C=C/C=C/C=C/C=C/C=C/[C@H](O[C@@H]2O[C@H](C)[C@@H](O)[C@H](N)[C@@H]2O)C[C@@H]2O[C@](O)(C[C@@H](O)C[C@@H](O)CC[C@H](O)[C@@H](O)C[C@@H](O)CC(=O)O[C@H]1C)C[C@H](O)[C@H]2C(=O)O | 256 isolates |  |  | 1 µg/mL
CCC(C)CC(C)CCCCCCCCC(=O)N[C@H]1C[C@@H](O)[C@H](NCCN)NC(=O)[C@@H]2[C@@H](O)CCN2C(=O)[C@H]([C@H](O)CCN)NC(=O)[C@H]([C@H](O)[C@@H](O)c2ccc(O)cc2)NC(=O)[C@@H]2C[C@@H](O)CN2C(=O)[C@H]([C@@H](C)O)NC1=O | 28 isolates |  |  | 0.06 µg/mL
C/C=C/CN=C(N)NCCCCCCCN1CCCCCCCCN=C(N)NC1=O |  |  |  | 73 µM
C[C@H]1[C@H](O)[C@@H](C)/C=C/C=C/C=C/C=C/C=C/C=C/C=C/[C@H](O[C@@H]2O[C@H](C)[C@@H](O)[C@H](N)[C@@H]2O)C[C@@H]2O[C@](O)(C[C@@H](O)C[C@@H](O)CC[C@H](O)[C@@H](O)C[C@@H](O)CC(=O)O[C@H]1C)C[C@H](O)[C@H]2C(=O)O | 150 clinical isolates |  |  | 0.5–1 µg/mL
CCC(C)n1ncn(-c2ccc(N3CCN(c4ccc(OC[C@H]5CO[C@](Cn6cncn6)(c6ccc(Cl)cc6Cl)O5)cc4)CC3)cc2)c1=O | 62 isolates |  |  | 0.25 µg/mL
C[C@@H](c1ncncc1F)[C@](O)(Cn1cncn1)c1ccc(F)cc1F | 3 clinical isolates |  |  | 0.5 µg/mL
CCC(C)n1ncn(-c2ccc(N3CCN(c4ccc(OC[C@H]5CO[C@](Cn6cncn6)(c6ccc(Cl)cc6Cl)O5)cc4)CC3)cc2)c1=O | 17 isolates |  |  | 0.13 µg/mL
C[C@@H](c1ncncc1F)[C@](O)(Cn1cncn1)c1ccc(F)cc1F | 25 isolates |  |  | 0.12 µg/mL
C[C@@H](c1nc(-c2ccc(C#N)cc2)cs1)[C@](O)(Cn1cncn1)c1cc(F)ccc1F | 62 isolates |  |  | 0.5 µg/mL
CCC(C)n1ncn(-c2ccc(N3CCN(c4ccc(OC[C@H]5CO[C@](Cn6cncn6)(c6ccc(Cl)cc6Cl)O5)cc4)CC3)cc2)c1=O | 35 isolates |  |  | 0.25 µg/mL
C[C@@H](c1ncncc1F)[C@](O)(Cn1cncn1)c1ccc(F)cc1F |  |  |  | 0.25 µg/mL
CC[C@@H]([C@H](C)O)n1ncn(-c2ccc(N3CCN(c4ccc(OC[C@@H]5CO[C@@](Cn6cncn6)(c6ccc(F)cc6F)C5)cc4)CC3)cc2)c1=O | 12 strains |  |  | 0.12 µg/mL
CCCCCOc1ccc(-c2cc(-c3ccc(C(=O)N[C@H]4C[C@@H](O)[C@@H](O)NC(=O)[C@@H]5[C@@H](O)[C@@H](C)CN5C(=O)[C@H]([C@H](O)CC(N)=O)NC(=O)[C@H]([C@H](O)[C@@H](O)c5ccc(O)c(OS(=O)(=O)O)c5)NC(=O)[C@@H]5C[C@@H](O)CN5C(=O)[C@H]([C@@H](C)O)NC4=O)cc3)no2)cc1 | 29 isolates |  |  | 0.0078 µg/mL
C[C@H]1[C@H](O)[C@@H](C)/C=C/C=C/C=C/C=C/C=C/C=C/C=C/[C@H](O[C@@H]2O[C@H](C)[C@@H](O)[C@H](N)[C@@H]2O)C[C@@H]2O[C@](O)(C[C@@H](O)C[C@@H](O)CC[C@H](O)[C@@H](O)C[C@@H](O)CC(=O)O[C@H]1C)C[C@H](O)[C@H]2C(=O)O |  |  |  | 0.39 µg/mL
Nc1ncccc1-c1cc(Cc2ccc(COc3ccccn3)cc2)no1 | IFM 51126 | broth dilution | 10% human serum | 0.25 µg/mL
C[C@H]1[C@H](O)[C@@H](C)/C=C/C=C/C=C/C=C/C=C/C=C/C=C/[C@H](O[C@@H]2O[C@H](C)[C@@H](O)[C@H](N)[C@@H]2O)C[C@@H]2O[C@](O)(C[C@@H](O)C[C@@H](O)CC[C@H](O)[C@@H](O)C[C@@H](O)CC(=O)O[C@H]1C)C[C@H](O)[C@H]2C(=O)O | 12 strains |  |  | 2 µg/mL
CCN1CCC(O)(/C=C/c2ccc(Cl)cc2)C(C(=O)/C=C/c2ccc(Cl)cc2)C1 | 20 strains |  |  | 2.92 µg/mL
CCC(C)n1ncn(-c2ccc(N3CCN(c4ccc(OC[C@H]5CO[C@](Cn6cncn6)(c6ccc(Cl)cc6Cl)O5)cc4)CC3)cc2)c1=O | 314 isolates |  |  | 0.25 µg/mL
CC(=O)OCC1C=C(c2ccc(Br)cc2)C(=O)O1 | 12 isolates |  |  | 1 µg/mL
CCCCCOc1ccc(-c2cc(-c3ccc(C(=O)N[C@H]4C[C@@H](O)[C@@H](O)NC(=O)[C@@H]5[C@@H](O)[C@@H](C)CN5C(=O)[C@H]([C@H](O)CC(N)=O)NC(=O)[C@H]([C@H](O)[C@@H](O)c5ccc(O)c(OS(=O)(=O)O)c5)NC(=O)[C@@H]5C[C@@H](O)CN5C(=O)[C@H]([C@@H](C)O)NC4=O)cc3)no2)cc1 | 17 isolates |  |  | ≤0.0078 µg/mL
C[C@H]1[C@H](O)[C@@H](C)/C=C/C=C/C=C/C=C/C=C/C=C/C=C/[C@H](O[C@@H]2O[C@H](C)[C@@H](O)[C@H](N)[C@@H]2O)C[C@@H]2O[C@](O)(C[C@@H](O)C[C@@H](O)CC[C@H](O)[C@@H](O)C[C@@H](O)CC(=O)O[C@H]1C)C[C@H](O)[C@H]2C(=O)O | 35 isolates |  |  | 1 µg/mL
C[C@H]1[C@H](O)[C@@H](C)/C=C/C=C/C=C/C=C/C=C/C=C/C=C/[C@H](O[C@@H]2O[C@H](C)[C@@H](O)[C@H](N)[C@@H]2O)C[C@@H]2O[C@](O)(C[C@@H](O)C[C@@H](O)CC[C@H](O)[C@@H](O)C[C@@H](O)CC(=O)O[C@H]1C)C[C@H](O)[C@H]2C(=O)O | 12 isolates |  |  | 0.25 µg/mL
C[C@@H](c1ncncc1F)[C@](O)(Cn1cncn1)c1ccc(F)cc1F | 256 isolates |  |  | 0.25 µg/mL
C[C@H]1[C@H](O)[C@@H](C)/C=C/C=C/C=C/C=C/C=C/C=C/C=C/[C@H](O[C@@H]2O[C@H](C)[C@@H](O)[C@H](N)[C@@H]2O)C[C@@H]2O[C@](O)(C[C@@H](O)C[C@@H](O)CC[C@H](O)[C@@H](O)C[C@@H](O)CC(=O)O[C@H]1C)C[C@H](O)[C@H]2C(=O)O |  |  |  | 0.5 µg/mL

2 of the rows above, restated:

SMILES | strain | read by | conditions | result
CCN1CCC(O)(/C=C/c2ccc(Cl)cc2)C(C(=O)/C=C/c2ccc(Cl)cc2)C1 | 20 strains |  |  | 2.92 µg/mL
C[C@@H](c1ncncc1F)[C@](O)(Cn1cncn1)c1ccc(F)cc1F | 256 isolates |  |  | 0.25 µg/mL

MIC50, MIC90 and the like: level of inhibition, or share of isolates inhibited. Neighbouring rows are from separate reports. a–b is a range or a potency band.